Laboratory results as given in ChEMBL document CHEMBL1148339, “Synthesis, structure-activity relationships, and drug resistance of beta-d-3'-fluoro-2',3'-unsaturated nucleosides as anti-HIV Agents” (J Med Chem, 2004).

Legend:
[1] = biological target: T1, Adenosine deaminase (Bos taurus) (UniProt P56658); assay: Kcat value against adenosine deaminase (ADA)
T1 sequence (whole entry): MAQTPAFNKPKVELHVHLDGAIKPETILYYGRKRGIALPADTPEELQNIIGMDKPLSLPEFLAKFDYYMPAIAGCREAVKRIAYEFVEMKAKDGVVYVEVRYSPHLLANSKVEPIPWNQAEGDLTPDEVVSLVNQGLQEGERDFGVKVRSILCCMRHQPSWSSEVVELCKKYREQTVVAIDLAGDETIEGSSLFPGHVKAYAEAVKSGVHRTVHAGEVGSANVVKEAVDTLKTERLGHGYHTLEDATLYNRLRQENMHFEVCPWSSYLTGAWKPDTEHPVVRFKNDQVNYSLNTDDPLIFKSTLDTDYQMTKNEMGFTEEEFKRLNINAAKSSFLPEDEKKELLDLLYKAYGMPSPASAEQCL

[2] = biological target: T1, Adenosine deaminase (Bos taurus); assay: Kcat/KM of compound against adenosine deaminase (ADA) was determined
Method in brief: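 Deamination by calf intestinal mucosa adenosine deaminase (0.15 units, MW 33 000, in 2 mL) in phosphate buffer pH 7.4 at 25 °C, substrate 15–100 μM, monitored by UV at 265 nm. Initial rates from graphical fitting of concentration vs time; Vmax and KM from Lineweaver–Burk plot, kcat calculated from enzyme amount.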

For `Nc1ncnc2c1ncn2[C@H]1C=C(F)[C@@H](CO)O1`, the k cat [1] was 31.8 s⁻¹ and the k cat/Km [2] was 3.6e+06 M⁻¹ s⁻¹.
